A mixed list of measured activities; the numbers were collected in NIAID ChemDB.

All rows: whole-cell or culture tests; agent: HIV-1; cells: MT-4; measure: EC50

Lines come from different laboratories, so protocols vary. Blank or dashed fields: not listed here. ECn: concentration that inhibits the pathogen or its effect by n%.

compound | strain | mutations | method | result
O=C(CSc1nnnn1-c1cccc2ccccc12)Nc1ccccn1 | - | - | p24 | <10 µM
O=C(CSc1nnccc1-c1cccc2ccccc12)Nc1ccccc1[N+](=O)[O-] | - | - | MTT | 0.046 µM
Cc1c(CC23CC4CC(CC(C4)C2)C3)nc(SCC(=O)Nc2ccc(S(N)(=O)=O)cc2)[nH]c1=O | RES056 | - | MTT / absorbance | >4.99 µM
CN(C)c1ccc(-n2nnnc2SCC(=O)Nc2ccccc2Cl)cc1 | - | - | p24 | <10 µM
CC(C)(C)NC(=O)[C@@H]1CN(Cc2cc3cc(CO)cnc3o2)CCN1C[C@@H](O)C[C@@H](Cc1ccccc1)C(=O)N[C@H]1c2ccccc2C[C@H]1O | IIIB | - | p24 | <0.0625 µM
O=C(N[C@H]1c2ccccc2OC[C@H]1O)[C@H](Cc1nnco1)C[C@H](O)CN1CCN(Cc2ccc(-c3ccc(Cl)cc3)o2)C[C@H]1C(=O)NCC(F)(F)F | Q-60 Clinical isolate | PR-L10I N37S R41K M46I I54V I62V L63P A71V V77I V82A L90M I93L | p24 | <0.031 µM
COC(=O)c1cccc(NC(=O)CSc2nnnn2-c2c(C)cc(C)cc2C)c1C | - | - | p24 | <10 µM
CC(=O)O[C@@]12C[C@@H](C)[C@@]3(O)[C@@H](C=C(CO)C[C@]4(O)C(=O)C(C)=C[C@@H]34)[C@@H]1C2(C)C | NL4-3 | - | p24 / ELISA | 0.175 µM
CC(=O)c1ccc(NC(=O)CSc2nc3ncccc3n2-c2ccc(C3CC3)c3ccccc23)c(Br)c1 | RES056 | - | MTT | >2.89 µM
Cc1nn(C)c2ncc(CN3CCN(C[C@@H](O)C[C@@H](Cc4ccccc4)C(=O)N[C@H]4c5ccccc5C[C@H]4O)[C@H](C(=O)NC(C)(C)C)C3)c(Cl)c12 | IIIB | - | p24 | <0.0125 µM
CCOC(=O)c1ccc(NC(=O)CSc2nc3ncccc3n2-c2ccc(C3CC3)c3ccccc23)c(Cl)c1 | IIIB | - | MTT | 0.73 µM
CC(C)(C)NC(=O)[C@@H]1C[C@@H]2CCCC[C@@H]2CN1C[C@@H](O)[C@H](Cc1ccccc1)NC(=O)[C@H](CC(N)=O)NC(=O)c1ccc2ccccc2n1 | NL4-3 | PR-M46I L63P V82T I84V | p24 | <0.2 µM
CC(C)(C)NC(=O)[C@@H]1CN(Cc2nc3ccccc3[nH]2)CCN1C[C@@H](O)C[C@@H](Cc1ccccc1)C(=O)N[C@H]1c2ccccc2C[C@H]1O | IIIB | - | p24 | <0.2 µM
CC(C)(c1ncc(-c2ccc(Cl)cc2)o1)N1CCN(C[C@@H](O)C[C@@H](Cc2nnco2)C(=O)N[C@H]2c3ccccc3OC[C@H]2O)[C@H](C(=O)NCC(F)(F)F)C1 | NL4-3 WT | - | p24 | <0.125 µM
O=C(CSc1nc2ncccc2n1-c1ccc(C2CC2)c2ccccc12)Nc1ccc(C(=O)O)cc1Cl | IIIB | - | MTT | ≥0.22 µM
Cc1cc(C)c(-n2nnnc2SCC(=O)Nc2ccc(S(=O)(=O)Nc3nc(C)c(C)o3)cc2)c(C)c1 | - | - | p24 | <10 µM
CC(C)(C)NC(=O)[C@@H]1CN(Cc2cc3cnccc3o2)CCN1C[C@@H](O)C[C@@H](Cc1ccccc1)C(=O)N[C@H]1c2ccccc2C[C@H]1O | IIIB | - | p24 | <0.006 µM
Cc1nnc(C[C@H](C[C@H](O)CN2CCN(C(C)(C)c3ncc(-c4ccc(Cl)cc4)o3)C[C@H]2C(=O)NCC(F)(F)F)C(=O)N[C@H]2c3ccccc3OC[C@H]2O)o1 | NL4-3 WT | - | p24 | <0.25 µM
CCc1c(CC23CC4CC(CC(C4)C2)C3)nc(SCC(=O)Nc2ccccc2)[nH]c1=O | IIIB | - | MTT / absorbance | 0.89 µM
CCCc1nnc(C[C@H](C[C@H](O)CN2CCN(Cc3ccc(-c4ccc(Cl)cc4)o3)C[C@H]2C(=O)NCC(F)(F)F)C(=O)N[C@H]2c3ccccc3OC[C@H]2O)o1 | Q-60 Clinical isolate | PR-L10I N37S R41K M46I I54V I62V L63P A71V V77I V82A L90M I93L | p24 | <0.016 µM
CCOC(=O)c1cnc2oc(CN3CCN(C[C@@H](O)C[C@@H](Cc4ccccc4)C(=O)N[C@H]4c5ccccc5C[C@H]4O)[C@H](C(=O)NC(C)(C)C)C3)cc2c1 | IIIB | - | p24 | <0.025 µM
CCCc1nnc(C[C@H](C[C@H](O)CN2CCN(C(C)(C)c3ncc(-c4cncc(OC)c4)o3)C[C@H]2C(=O)NCC(F)(F)F)C(=O)N[C@H]2c3ccccc3OC[C@H]2O)o1 | NL4-3 WT | - | p24 | <0.5 µM
CC(C)(C)NC(=O)[C@@H]1CN(Cc2ccc3occc3c2)CCN1C[C@@H](O)C[C@@H](Cc1ccccc1)C(=O)N[C@H]1c2ccccc2C[C@H]1O | IIIB | - | p24 | <0.1 µM
O=c1[nH]cnc2c1ncn2[C@H]1CC[C@@H](CO)O1 | NL-XM WT | - | p24 | <6.9 µM
NC(=O)c1ccc(NC(=O)CSc2nc3ncccc3n2-c2ccc(C3CC3)c3ccccc23)c(Cl)c1 | RES056 | - | MTT | >0.68 µM
CC(=O)c1sccc1NC(=O)CSc1nnnn1-c1c(C)cc(C)cc1C | - | - | p24 | <10 µM
Cc1cn([C@H]2C[C@H](N=[N+]=[N-])[C@@H](CO)O2)c(=O)[nH]c1=O | NL4-3 WT | - | p24 | <0.03 µM
CC(C)CN(C[C@@H](O)[C@H](Cc1ccccc1)NC(=O)[C@H](CC(N)=O)NC(=O)c1ccc2ccccc2n1)C(=O)NC(C)(C)C | NL4-3 | PR-M46I L63P V82T | p24 | <0.4 µM
Cc1ccc(NC(=O)CSc2nc(CC34CC5CC(CC(C5)C3)C4)c(C)c(=O)[nH]2)c([N+](=O)[O-])c1 | IIIB | - | MTT / absorbance | 5.39 µM
Cc1cc(C)c(-n2nnnc2SCC(=O)Nc2ccc(F)cc2[N+](=O)[O-])c(C)c1 | - | - | p24 | <10 µM
Cc1c(CC23CC4CC(CC(C4)C2)C3)nc(SCC(=O)Nc2ccc(C#N)cc2)[nH]c1=O | IIIB | - | MTT / absorbance | >6.69 µM
CC(Sc1nc2ncccc2n1-c1ccc(C2CC2)c2ccccc12)C(=O)Nc1ccc(C(N)=O)cc1Br | RES056 | - | MTT | >3.05 µM
CCc1c(CC23CC4CC(CC(C4)C2)C3)nc(SCC(=O)c2ccc(OC)cc2)[nH]c1=O | RES056 | - | MTT / absorbance | >17.19 µM
Cc1cc(C)c(-n2nnnc2SCC(=O)Nc2ccc(Cl)nc2Cl)c(C)c1 | - | - | p24 | <10 µM